# Percent effect of library compounds

Data taken from ChEMBL document CHEMBL3988442, “University of Dundee, Small-Polar-MMV Screening Library” (2021).

Mtb glucose medium: 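Phenotypic screen: M. tuberculosis growth, glucose 7H9 medium, 3 days; the read-out is not stated. Compounds at 500 µM. Higher reads as more growth inhibition (inferred: compounds with an IC50 in retests scored well above the rest). About 18,000 compounds were tested under these conditions; 7.9% (about 1,400) showed 50% or more at least once.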
Mtb cholesterol medium: 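Phenotypic screen: M. tuberculosis growth, cholesterol and DPPC medium, 4 days; the read-out is not stated. Compounds at 500 µM. The record gives no direction; compounds that gave an IC50 in retests scored well above the rest, so higher reads as more growth inhibition. Size under these conditions: about 18,000 compounds, about 900 of them at 50% or above in at least one test.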

Values are the deposited “Percent Effect”, in %.
How 0% and 100% were set is not recorded. Most values in the screen are low, and negative values occur.
Many other results are left out here, so strong results are more common than in the screen.
A dash means the value is not listed here; it may have been measured.

SMILES | Mtb glucose medium | Mtb cholesterol medium
CNCc1ccc(N)nc1 | -10.16 | -
c1cc(OC2CCNCC2)ccn1 | 8.35 | -
CC(C)c1cc(C(=O)NC(C#N)C2CC2)n(C)n1 (centres undefined) | 33.96 | -
COc1ccc(OC)c(NC(=O)C(C)C)c1 | 46.61 | 34.26
O=C(c1ccoc1)N1CCCCC1Cn1cccn1 (centres undefined) | 10.77 | -
OCCCN1CCNCC1 | -8 | -
NC(=O)CN1CCCC(C(=O)NC2CCCCC2)C1 (centres undefined) | 5.936 | -
CCN(CC)CCNC(=O)c1cc(C2CC2)[nH]n1 | 17.27 | -
NCC(CO)Cc1cc(F)ccc1F (centres undefined) | 13.7 | -
CN1CCN(CCCNC(=O)c2ccco2)CC1 | - | -11.42
NCc1ccc(-c2cccnc2)o1 | 20.85 | -
CN(C)C(CNC(=O)NCc1cc[nH]n1)c1ccsc1 (centres undefined) | 8.012 | -
Cc1cc(C(=O)NCCCO)c2ccc(F)cc2n1 | - | -9.18
O=C(NCC1(O)CCNC1)c1cccc(OC(F)F)c1 (centres undefined) | - | 12.79
CNS(=O)(=O)c1ccc(C(=O)NCC2(C)CCC2)o1 | 29.42 | -
Cc1cc(CN)c(C)s1 | -0.1272 | -
CCC[C@H](N)C(N)=O | 20.41 | -
CC(C)CCNC(=O)Cn1c(=O)oc2ccccc21 | 67.93 | 87.18
CC(C)(C)OCCOc1nnc2ccccn12 | - | 19.23
CCOC(=O)CCNC(=O)N1CCN(CC(C)C)CC1 | 12.44 | -
COc1cc(-c2cc(N)n[nH]2)cc(OC)c1OC | 11.91 | -
CN(Cc1ccccc1C(F)(F)F)C(=O)CCCN | -5.739 | -
NCc1cccc(S(=O)(=O)NCC(F)(F)F)c1 | 16.77 | -
CCNCCNC(=O)CCc1ccc(F)cc1 | 2.245 | -
Cc1nsc(C(=O)NCCCn2cccn2)n1 | 45.49 | 26.17
COc1cccc(OC)c1CN | 34.29 | -
O=C(c1ccccc1)N1CCN(Cc2ccco2)CC1 | 26.16 | 29.11
CCN(CC)C(=O)Nc1c(C)nn(C)c1OC | - | -4.313
Cc1noc(CSCC(=O)NCc2ccccc2F)n1 | 38.74 | 22.66
O=C(C1CCS(=O)(=O)C1)N1CCc2ccccc2C1 (centres undefined) | 5.799 | -
OC1CCN(Cc2ccccc2)C2(CC2)C1 (centres undefined) | - | -6.315
Cc1cc(N2CCNCC2)nc2ccccc12 | 54.21 | 57.97
CC1CCCCN1S(=O)(=O)N1CCN(C)CC1 (centres undefined) | - | 8.764
Cc1ccc(S(=O)(=O)NCCN)cc1C(F)(F)F | 69.51 | 52.28
O=C(CCc1cc(F)ccc1Br)N1CC[S+]([O-])CC1 | 40.63 | -
CN(C(=O)c1ccc(S(C)(=O)=O)cc1)c1ccccc1 | -4.329 | -7.156
CC(C)Cc1nc(C#N)c(N)o1 | 19.09 | -
NCCNCC(F)(F)F | -6.242 | -
CC(C)COc1cncc(NC2CCS(=O)(=O)C2)n1 (centres undefined) | 41.22 | -
Cc1ccccc1CC(=O)NCC(F)(F)F | -5.038 | -
Cc1ccoc1C(=O)N(C)Cc1ccc[nH]1 | 22.94 | -
CCN(C(=O)NCc1sccc1C)C(C)CS(C)(=O)=O (centres undefined) | 6.731 | -
O=S1(=O)CC[C@H]2CNC[C@H]21 | 0.9147 | -
COc1ccc(NC(=O)CC2COCCN2)c(C)c1 (centres undefined) | -23.56 | -
CC(CCc1cccc(F)c1)N1CCNC(=O)CC1 (centres undefined) | 17.58 | -
COc1ccc(NC(=O)c2ccc(S(N)(=O)=O)o2)cc1 | 53.45 | -
COc1cc(CC(=O)NCCNC(C)=O)ccc1C | 15.29 | -
Nc1ccn(CCO)n1 | -7.57 | -
CCOc1nnc(CNCC2CCN(CCO)CC2)s1 | - | -9.97
Cc1ncc(C(=O)NCCN2CCCC2)s1 | -4.466 | -
O[C@H]1CN(Cc2cccnc2)C[C@@H]1N1CCCCC1 | - | 12.82
CC(C)N1CCC(C(=O)N(C)Cc2nccn2C)CC1 | 8.743 | -
CN(C)C(=O)N1CCN(c2ncccc2C#N)CC1 | 34.6 | -
CCN1CCN(c2cc(C#N)ccn2)CC1 | 24.38 | -
O=C(CSc1cnn[nH]1)OCc1ccccc1 | 53.48 | 18.08
CC(C(=O)NCc1ccc(Cl)s1)S(C)(=O)=O (centres undefined) | 23.16 | -
O=S1(=O)CCC(Nc2cc([C@H]3C[C@@H](O)C3)ncn2)CC1 | 7.742 | -
COc1cccc(C(F)(F)CN)n1 | -3.782 | -
CC(C)=CCO[C@@H]1COCC[C@H]1NC(=O)CN(C)C | 8.002 | -
CCOc1ccc(C(C)=O)cc1CN1CCCC1 | 62.74 | -

The last 4 entries again:

SMILES	Mtb glucose medium	Mtb cholesterol medium
O=S1(=O)CCC(Nc2cc([C@H]3C[C@@H](O)C3)ncn2)CC1	7.742	-
COc1cccc(C(F)(F)CN)n1	-3.782	-
CC(C)=CCO[C@@H]1COCC[C@H]1NC(=O)CN(C)C	8.002	-
CCOc1ccc(C(C)=O)cc1CN1CCCC1	62.74	-